Laboratory results: patent US8158575B2, “Agent for the prevention and treatment of sexually transmitted diseases-I” (priority 2001, dated 2012)

Molecular target: T1, cell-to-cell fusion mediated by HIV-1 Env and CD4 (Human immunodeficiency virus type 1 group M subtype B, UniProt P04578)
T1 construct: expressed in transfected cells; host or cells: HeLa CD4 LTR beta-gal cells (CD4) co-cultured with HL2/3 cells (HIV-1 Env)
Format: cell-based
Conditions: HeLa CD4 LTR […]-gal + HL2/3 cells
Description: The fusion assay assesses the ability of compounds to block cell-to-cell fusion mediated by HIV-1 Env and CD4 expressed on separate cells. This assay is sensitive to inhibitors of both the gp120/CD4 interaction and inhibitors of the X4 coreceptor. First, 5×10^3 HeLa CD4 LTR […]-gal cells are placed in microtiter wells and incubated overnight. The following day the media is removed and the HeLa CD4 LTR […]-gal cells are incubated for 1 h at 37° C. in fresh media with test compound. Following the incubation 5×10^3 HL2/3 cells are added and the incubation continued for 40 to 48 h. At 40 to 48 h […]-galactosidase enzyme expression is detected by chemiluminescence (Tropix Gal-screen™, Tropix, Bedford, Mass.). Compound toxicity is monitored on a sister plate using XTT dye reduction.

Substance: BHAlyslys2lys4lys8lys16[NH—CO—CH2)O-3,6-Naphthyl-(SO3Na)2]32 [SPL-7013]
- Fusion Assay IC50: 0.71 µg/mL
